Reference: patent US20240255507A1 (SYSMEX, published 2024)

Target: SARS-CoV-2 wild-type RBD (SARS-CoV-2, UniProt P0DTC2 319-541)
Assay: ELISA, antigen coated, binder 1 µg/mL, chemiluminescence

Row | Binder | signal intensity
1 | CV30 (antibody, V domains shown) VH: EVQLVESGGGLIQPGGSLRLSCAASGVIVSSNYMSWVRQAPGKGLEWVSVIYSGGSTYYADSVKGRFTISRDNSKNTLYLQMNSLRAEDTAVYYCARDLDVSGGMDVWGQGTTVTVSS VL: not shown | 1.17e+06
2 | CR3022 (antibody, V domains shown) VH: QMQLVQSGTEVKKPGESLKISCKGSGYGFITYWIGWVRQMPGKGLEWMGIIYPGDSETRYSPSFQGQVTISADKSINTAYLQWSSLKASDTAIYYCAGGSGISTPMDVWGQGTTVTVSS VL: DIQMTQSPSSLSASVGDRVTITCRASQSIYSALNWYQQKPGKAPKLLIYAASALQSGVPSRFSGSGSGTDFTLTISSLQPEDFATYYCQQTDIHPYTFGQGTKVEIKR | 1.24e+06
